Key:
[1] = tested on: P. falciparum MMV019721-resistant lines (3D7-A10 or Dd2-B2 derived); experiment: Dose-response assay of MMV019721-selected resistant lines (bulk cultures and clones); type: cell-based
Method: For in vitro–selected lines, drug susceptibility was measured by SYBR Green I–based assay ([Johnson et al., 2007]; [Smilkstein et al., 2004]). Ring-stage parasites were cultured for 72 hr at 1% hematocrit and 1% starting parasitemia in 384-well black clear-bottom plates containing test compounds plated in triplicate in 12-point serial dilutions. Lysis buffer (0.16% w/v saponin, 1.6% Triton X-100, 5 mM EDTA, and 20 mM Tris-HCl, pH 7.4) with SYBR Green I fluorescent dye (Invitrogen) was added, and fluorescence readings were taken (excitation at 494 nm, emission at 530 nm). Alternatively, Dd2-B2 ring-stage cultures at 0.3% parasitemia and 1% hematocrit were exposed for 72 hr to a range of ten drug concentrations that were 2-fold serially diluted in duplicates along with drug-free controls. Parasite survival was assessed by flow cytometry on an Accuri C6 (BD Biosciences) using SYBR Green and MitoTracker Deep Red FM (Life Technologies) as nucleic acid stain and vital dyes respectively. EC50 values were calculated using a nonlinear regression curve fit in Prism Software version 8 (GraphPad).
Bulk cultures were tested for reduced drug susceptibility and individual clones were isolated by limiting dilution.

PfAcAS T648M = experiment: EnzChek assay, recombinant PfAcAS T648M; type: biochemical, P. falciparum
Method: (§1) Steady-state kinetic measurements were conducted at room temperature using a PheraStar plate reader (BMG). The first step of the reaction of PfAcAS, which produces inorganic pyrophosphate (PPi) that is converted to two molecules of inorganic phosphate using a pyrophosphatase enzyme, was continuously monitored using the EnzChek Phosphate Assay Kit, which gives an absorbance readout at 360 nm (Figure 4A) ([Webb, 1992]). […] By adding CoA, the reaction rapidly proceeds to the second step resulting in further release of pyrophosphate, making the EnzChek assay a suitable option to continuously monitor the activity of PfAcAS. Typical kinetic assays were carried out in clear, flat-bottom, polystyrene, 384-well plates (Greiner) in an 80 μL reaction volume containing 100 mM HEPES (pH7.4), 100 mM NaCl, 250 mM KCl, 50 mM MgCl2, 1 mM DTT, 0.004% Tween 20, 0.5 U/mL pyrophosphatase, 0.1 mM MESG, 0.5 U/mL PNP, 2 mM ATP, 2 mM acetate, 0.5 mM CoA and 5 nM recombinant PfAcAS WT or 10 nM recombinant PfAcAS A597V or T648M. […] The reactions were carried out for 2 to 4 hr with absorbance readings at 360 nm every two to four minutes. […] The substrates Km values were determined by varying the concentration of one of the substrates at saturating concentration of the other two substrates. […]

PfAcAS A597V = experiment: EnzChek assay, recombinant PfAcAS A597V; type: biochemical, P. falciparum
Method: as §1

[2] = tested on: histone acetylation in P. falciparum Dd2-A597V; conditions: trophozoites, 3 h exposure

SMILES | average fold shift in the EC50 of resistant clones ([1]; clones isolated upon exposure to MMV019721) | average fold shift in EC50 over wild-type parasites, A597V clones ([1]; five clones with PfAcAS A597V) | fold resistance over wild-type parasites, clones with PfAcAS amplification ([1]; two clones, amplification on chromosome 6 containing PfAcAS) | fold increase of IC50, PfAcAS T648M vs WT (PfAcAS T648M) | fold increase of IC50, PfAcAS A597V vs WT (PfAcAS A597V) | histone acetylation in Dd2-A597V-resistant line [2]
CCN(CC)S(=O)(=O)c1ccc(Cl)c(C(=O)Nc2ccc3nc(C)sc3c2)c1 [MMV019721] | 12 fold | 15 fold | ~3.5 fold | 246 fold | 94 fold | protection
O=C(NNC(=O)c1csnn1)c1ccc(Cl)cc1 [MMV084978] | – | – | – | > 271 fold | > 271 fold | –

Reference: paper PMC8878317, “Chemogenomics identifies acetyl-coenzyme A synthetase as a target for malaria treatment and prevention” (Cell Chemical Biology, 2022)
